Results published in ChEMBL document CHEMBL1129975, “Depsides and depsidones as inhibitors of HIV-1 integrase: discovery of novel inhibitors through 3D database searching” (J Med Chem, 1997).

Each molecule was assayed against Human immunodeficiency virus type 1 integrase (Human immunodeficiency virus 1) (UniProt Q7ZJM1) (assay: Percentage inhibition of compound against 3'-processing of HIV-1 integrase at 100 ug/mL).

First: O=[N+]([O-])c1cc(-c2cc([N+](=O)[O-])c(O)c([N+](=O)[O-])c2)cc([N+](=O)[O-])c1O
Second: O=[N+]([O-])c1cc(Cc2cc([N+](=O)[O-])c(O)c([N+](=O)[O-])c2)cc([N+](=O)[O-])c1O
The inhibition of the first is lower: 92.6% for the first, 92.7% for the second.

Going from `O=C(c1ccc(O)cc1O)c1c([N+](=O)[O-])cc([N+](=O)[O-])cc1[N+](=O)[O-]` to `O=C(O)C(CSSCC(Nc1ccc([N+](=O)[O-])cc1[N+](=O)[O-])C(=O)O)Nc1ccc([N+](=O)[O-])cc1[N+](=O)[O-]` (stereo not given), the inhibition falls from 93.5% to 86.7%.

With `O=[N+]([O-])c1c(Cl)c(O)c(Cl)c([N+](=O)[O-])c1Nc1c([N+](=O)[O-])c(Cl)c(O)c(Cl)c1[N+](=O)[O-]` the inhibition was 94.7%.
